Earlier results as cited in publication PMC8850191, “Mechanisms of inhibition and activation of extrasynaptic αβ GABAA receptors” (Nature, 2022).

Tested on: nAChRα7
Design: method as in PMID 11867717
Details: toxin mutation relative to α-CBTx; cited from earlier work

Row | Substance | reduction of affinity
1 | Arg33Gly: α-CBTx with the finger II mutation Arg33Gly | 300 fold
2 | Arg36Gly: α-CBTx with the finger II mutation Arg36Gly | 300 fold
